# Data: article PMC11556721, “A novel esterase regulates Klebsiella pneumoniae hypermucoviscosity and virulence” (PLOS Pathogens, 2024)
# The exact form of at least one protein or probe is not confirmed.
# Biological target: rOmpR (phosphorylated with acetyl phosphate) (UniProt A6TF28)
# Assay: EMSA
# Details: 25 mM acetyl phosphate, 1 mM MgCl2, poly(dI-dC), rOmpR 0-1 ug, 50 ng DNA; recombinant protein; label: none (GelRed stain); probe letters rebuilt from the primers and the genome
sequence,measurement,value
CGCCGAAGCGATCCTGTTTTTTCTCATCATAATATTCCCTTATATAATCATTGGCGTAAATAAAACACGACAACAACCCTATTCCGTGCCGGTGCTAATAGCCGTATCCATACCGTTTGACGTCGCGGCGGCTGTTATTTTTGCGGTTAGACAAAAACAAAAAAACCTGAAGAAGACCATCTGCCTTGGCAGATAATCCTCTTCAGGTTTTGCCCGCGCATCGCGGTAGCAACCCTCATTCAGCCATTATTGGCCCGCATAAAACAAAAAACCTGATATCGCCCCCAGGAGCAATATCAGGTTTTGCCTGCTGTCGCAGTCACAATCCGTTT (double strand) [PVK055_3347 promoter fragment],binding result,binds
